Experimental data taken from the supplement of paper PMC9931576.
Where a chain is given by its changes, count along the chain named. Human monoclonal antibodies against the spike receptor-binding domain (heavy:light variable regions). IC50 against pseudoviruses bearing the spike of naturally observed variants; lower = stronger; >10 µg/ml means not reached at the top dose. No active / inactive call. The stated detection limit is 0.0005 µg/ml; values near or below 0.001 µg/ml lie at the floor of the assay.

B1: BD56-1322 (protein)
chain 1: EVQVEESGGGLVQPGRSLRLSCVASGFTFEDFAMHWVRQAPGKGLEWVSGITWNSGTIGYADSVKGRFIISRDNAKNSLYLQMNSLSPDDTALYFCAKDMGKDDYDVLAGFRDWGQGTLVTVSS
chain 2: QSVLTQPPSASGTPGQRVTISCSGSSSNIGSNTVNWYQQLPGAAPKLLIYSNNQRPSGVPDRFSGSKSGTSASLAISGLQSEDEAGYYCAAWDDSLYVFGTGTKVTVL
B2: BD56-1317 (protein)
chain 1: EVQLVESGGGLVQPGRSLTLSCAASGFTFDDYAMHWVRQAPGKGLEWVSGISWNSGTIGYADSVQGRFIISRDNAKNSLFLHMRSLRAEDTALYYCAKDIRGTMIDDTIYGMDVWGQGTTVTVSS
chain 2: QSALTQPASVSGSPGQSITISCTGTSSDVGNYNYVSWYQQHPGKAPKLMIYDVNKRPSGISNRFSGSKSGNTASLTISGLQAEDEADYYCSSYTITSIVIFGGGTKLTVL
B3: BD56-1399 (protein)
chain 1: QVHLVQSGAEVKKPGASVKVSCKASGYTFTNHYIHWVRQAPGQGLEWMGIINPSGGSTSYAQKFQGRVTMTTDTSTSTVYMELSSLRFDDTAVYYCARDSSYIPQNHYYGLDVWGQGTTVTVSS
chain 2: DIQMTQSPSSLSASVGDRVTITCRASQSISSYLNWYQQKPGKAPKLLIYAASSLQSGVPSRFSGGGSGTDFGLTISTLQPEDFATYYCQQSYITPPTFGQGTKVEIK
B4: BD56-1321 (protein)
chain 1: QVQLVQSGAEVKKPGASVKVSCKASGYTFTTYYIHWVRQAPGQGLEWMGIINPSGGGTRYAQKFQGRVTMTRDTSTSTGYMELSSLRSEDTAVYFCARELVAPAAGYMDVWGKGTTVTVSS
chain 2: SYVLTQPPSVSVAPGKTARITCGGNSIGSKSVHWYQQKPGQAPVLVVYDDSDRPSGIPERFSGSNSGNTATLTINRVEAGDEADYYCQVWDGSSDHFYVFGSGTKVTVL
B5: BD56-1341 (protein)
chain 1: QVQLVESGGGVVQPGRSLRLSCAASGFTFSSYGMHWVRQAPGKGLEWVAVIWHDGTKKDYADSVKGRFTISRDNSKNTLYLQTSSLRAEDTAVYYCARGHYGDEVGYYYFALDVWGQGTTVTVSS
chain 2: QSVLTQPPSVSGAPGQRVTITCTGTSSNIGAPYDVHWYQQLPGTVPKLLIYGDTNRPSGVPDRFSGSKSGTSASLAITGLQAEDEGDYYCQSYDSSLSGWVFGGGTKLTVL
B6: BD56-1403 (protein)
chain 1: QVQLQESGPGLVKPSETLSLTCTVSGDSVHSGSYYWSWIRQPPGKGLEWIGYIYYSGSTNYNPSLKSRITMSLDTSKNQFSLKLNSVTAADTAVYYCARGFVVAVTAAPWFDPWGQGTLVTVSS
chain 2: B5 chain 2 with T21S, T25S, P32G, Y33F, V45A, G52R, D53N, T54N, V60I, G86A
B7: BD56-1318 (protein)
chain 1: EVQLVESGGGLVKPGGSLRLSCTASGFTFSTYSMNWVRQAPGKGLEWVSSISGSGDHIYYADSVKGRFTISRDNAKNSLYLQMNSLRAEDTAVFYCARDSEWGGDILTGFSHIFDYWGRGTLVTVSS
chain 2: DIQMTQSPSSLSASVGDRVTITCRASQIISSSLNWYQQKPGGAPKLLIYAFSLHSGVPSRFSGSGSGTDFTLTISSLQPEDFATYYCQQSYSSPPTFGGGTTVEIK
B8: BD56-1393 (protein)
chain 1: QVQLVESGGGVVQPGRSLRLSCAASGFTFNNFAMHWVRQAPGKGLEWVAVISSDGSKKYYADSVKGRFTISRDISKNTLFLQMNSLRAEDTAVYYCAREPGTYGSGNYMDVWGKGTTVTVSS
chain 2: SYELTQPPSVSVSPGQTARITCSGDALPKQYAYWYQQKPGQAPVLLISKDSERPSGIPERFSGSTSGTTVTLTISGVQAEDEADYYCQSVDSSGTYVFGTGTKVTVL
B9: BD56-1329 (protein)
chain 1: EAQLVESGGGLVQPGGSLRLTCSVSGFTFSDYSIHWVRQAPVKGLEYVSSISSDGGITYYADSVKGRFTISRDNSKNTLYLQMSSLRPEDTAVYYCVRPLIHLWTDVYDIWGQGTMVTVSS
chain 2: DIQMTQSPSSLSASVGDRVTITCRASQSIITYLSWYQQRPGKAPKLLIYATSTLQTGVPSRFSGSGSGTDFTLTISSLQPEDFATYYCQQSYTTPPNFGGGTKVEIK
B10: COV2-2064 (protein)
chain 1: QVQLAQSGAEVKKPGASVKVSCKAAGYTFTSYDINWVRQATGQGLEWMGWMNSNSGNAGYAQKFQGRVTMTRDTSTSTAYMELSSLTSDDTAVYYCARMRTGWPTHGRPDDFWGRGTLVTVSS
chain 2: QSVLTQPPSASGTPGQRVTISCSGSNSNIGSYTVNWYQQFPGTAPKLLIYDNNQRTSGVPDRFSGSKSGTSASLAISGLQSEDEANYYCLVWDDSLNGLVFGGGTKLTVL
B11: BD56-1400 (protein)
chain 1: QVQLQESGPGLVKPSQTLSLTCTVSGGSISSTSYYWSWIRQPAGQGLEWIGHISTSGTTNYKSSLKSRVTISVDTSKNQFSLKLSSVTAADTAVYYCARGLGWPQPRIDNWGQGTLVTVSS
chain 2: DIQMTQSPSSLSASVGDRVTITCRASQSISNYLNWYQQKPGKAPKLLIYGASSLQSGVPLRFSGSGSGTDFTLTISSLRPEDFATYYCQQSYSTFTFGPGTKVDIK
B12: BD56-1320 (protein)
chain 1: QVQLVESGGGVVQTGRSLRLSCAASGFIFRSFGMHWVRQAPGKGLEWVAVISDDESKKYYADSVKGRFTISRDNSKNTLYLQMNSLKPEDTAVYYCARPPREYYDVLIDYYRGVIELGMDVWGQGTTVTVSS
chain 2: QAVVTQEPSLTVSPGGTVTLTCGSNTGAVTSGHYPYWFQQKPGQAPRTLIYDTNNKHSWTPARFSGSLIGGKAALTLSGAQPEDEAYYYCLLSYSGAHVIFGGGTKVTVL

Assays:
Assay in all cases: pseudovirus neutralization IC50; higher = weaker neutralization
[1] = biological target: SARS-CoV-2 Omicron BA.1 spike pseudovirus
Protocol: (§1)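 Single-round VSV luciferase pseudovirus mixed with antibody dilutions for 1 h and put on Huh-7 cells for about a day; IC50 from the dose curve.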

[2] = biological target: SARS-CoV-2 Omicron BA.2 spike pseudovirus
Protocol: as §1

[3] = biological target: SARS-CoV-2 Omicron BA.2.75 spike pseudovirus
Protocol: as §1

[4] = biological target: SARS-CoV-2 Omicron BA.5 spike pseudovirus
Protocol: as §1

[5] = biological target: SARS-CoV-2 Omicron BQ.1.1 spike pseudovirus
Protocol: as §1

[6] = biological target: SARS-CoV-2 Omicron XBB spike pseudovirus
Protocol: as §1

[7] = biological target: SARS-CoV-2 early D614G spike pseudovirus
Protocol: as §1

Binder | pseudovirus neutralization IC50 [1] [µg/mL] | pseudovirus neutralization IC50 [2] [µg/mL] | pseudovirus neutralization IC50 [3] [µg/mL] | pseudovirus neutralization IC50 [4] [µg/mL] | pseudovirus neutralization IC50 [5] [µg/mL] | pseudovirus neutralization IC50 [6] [µg/mL] | pseudovirus neutralization IC50 [7] [µg/mL]
B1 | 0.0444 | 0.0479 | 0.0641 | > 10 | > 10 | 3.52 | 0.0223
B2 | 0.0201 | 0.0392 | 0.0227 | > 10 | > 10 | > 10 | 0.0194
B3 | > 10 | > 10 | > 10 | > 10 | > 10 | > 10 | > 10
B4 | 2.46 | 2.66 | 2.55 | 4.65 | 3.05 | 2.24 | 2.32
B5 | 1.17 | 0.227 | 0.291 | 0.272 | 0.459 | 0.638 | 0.253
B6 | > 10 | > 10 | > 10 | > 10 | > 10 | > 10 | > 10
B7 | > 10 | > 10 | > 10 | > 10 | > 10 | > 10 | 6.53
B8 | > 10 | > 10 | > 10 | > 10 | > 10 | > 10 | > 10
B9 | 3.23 | 3.2 | 2.61 | 4.65 | 5.89 | 3.98 | 0.838
B10 | > 10 | > 10 | > 10 | > 10 | > 10 | > 10 | 0.238
B11 | > 10 | > 10 | > 10 | > 10 | > 10 | > 10 | > 10
B12 | 1.27 | 1.5 | > 10 | 1.38 | > 10 | > 10 | 0.314
